Pooled drug test results. Numbers come from NIAID ChemDB, via PubChem.

Common to all: cytotoxicity tests; cell line: VERO; read-out: CC50

Blank or dashed fields: not listed here. Lines come from different laboratories, so protocols vary. CCn is the concentration with n% toxicity to the cells.

SMILES,method,result
Nc1ccn(C[C@H]2C[C@H]2CO)c(=O)n1,-,>100 µM
O=c1[nH]c(=O)n([C@H]2C[C@H](O)[C@@H](CO)S2)cc1C(F)(F)F,-,139 µM
O=c1c(-c2ccccc2)nn(CCCCO)c2ncnn12,-,1130 µM
C/C=C/c1cn([C@H]2C[C@H](O)[C@@H](CO)S2)c(=O)[nH]c1=O,-,>100 µM
Cc1cn2c(C(=O)NCc3ccc(N4CCC(Oc5cccc(C(F)(F)F)c5)CC4)c(F)c3)c(C)nc2s1,fluorescence,>100 µM
Cc1cc(N/N=C/c2ccccc2)c2cc(C3CCCCC3)ccc2n1,-,64 µg/mL
Cc1cn2c(C(=O)NCc3ccc(N4CCOCC4)c(F)c3)c(C)nc2s1,fluorescence,>100 µM
CCOP(=O)(OCC)C1=NOC(n2ccc(NC(C)=O)nc2=O)C1,-,>400 µM
Nc1nc2c(ncn2[C@@H]2O[C@@H](CO)[C@H](O)C2(F)F)c(=O)[nH]1,-,>100 µM
O=c1c(-c2ccccc2)nn(CCO)c2ncnn12,-,>500 µM
Nc1ncnc2c1ncn2[C@@H]1O[C@H](CO)C(F)(F)C1(F)F,-,>100 µM
Nc1nc(Cl)c2ncn([C@H]3O[C@@H](CO)C=C3F)c2n1,-,>100 µM
CSc1nc2n(CCO)nc(-c3ccccc3)c(=O)n2n1,-,>500 µM
O=C(NN=Cc1ccc([N+](=O)[O-])o1)c1ccccc1Sc1ccccc1,-,2.92 µg/mL
CCCCc1ccc2nc(C)cc(N/N=C/c3ccc(OC)c4ccccc34)c2c1,-,9.8 µg/mL
O=C(NN=Cc1ccco1)c1ccccc1Sc1ccccc1,-,>50 µg/mL
Cc1nc2n(CCCCO)cc(-c3ccccc3)c(=O)n2n1,-,>930 µM
Clc1ccc(/C(Cn2ccnc2)=N\OCc2cccc3ccccc23)cc1,-,12 µg/mL
Cc1cc(/C=N/Nc2ccnc3ccc(C4CCCCC4)cc23)c(C)n1-c1ccccc1,-,12.6 µg/mL
Clc1ccc(/C(Cn2ccnc2)=N/OCc2ccc(-c3ccccc3)cc2)c(Cl)c1,-,3 µg/mL
Cn1c([N+](=O)[O-])cnc1C=NNC(=O)c1ccccc1Sc1ccccc1,-,>50 µg/mL
O=c1ccn(C[C@H]2C[C@H]2[C@H](O)CO)c(=O)[nH]1,-,>100 µM
O=c1ccn([C@@H]2O[C@@H](CO)C=C2F)c(=O)[nH]1,-,>100 µM
O=C(NN=Cc1cccs1)c1ccccc1Sc1ccccc1,-,>50 µg/mL
Nc1nc(=O)n([C@@H]2O[C@@H](CO)[C@H](O)C2(F)F)cc1F,-,>100 µM
Cc1cn([C@@H]2O[C@H](COP(=O)(N[C@@H](C)C(=O)OC(C)C)Oc3ccccc3)C(F)(F)C2(F)F)c(=O)[nH]c1=O,-,>100 µM
CC(Sc1ncnc2c1cnn2COCCO)C(N)=O,-,>400 µg/mL
O=c1[nH]c(=O)n([C@H]2C[C@H](O)[C@@H](CO)S2)cc1Br,-,>500 µM
CC(C)OC(=O)[C@H](C)NP(=O)(OC[C@H]1O[C@@H](n2ccc(=O)[nH]c2=O)C(F)(F)C1(F)F)Oc1ccccc1,-,>100 µM
O=c1[nH]cnc2c1ncn2C[C@H]1C[C@H]1CO,-,>100 µM
C[C@]1(Cn2cnc3c(=O)[nH]c(N)nc32)[C@@H](COCP(=O)(O)O)C1(F)F,-,>100 µM
CC[C@@H](C(C)C)[C@@H](O)[C@H](O)[C@@H](C)[C@H]1CC[C@H]2[C@@H]3CC(=O)[C@H]4C[C@@H](Br)CC[C@]4(C)[C@H]3CC[C@]12C,MTT,248 µM
O=c1[nH]cnc2c1ncn2[C@H]1O[C@@H](CO)[C@H](O)C1(F)F,-,>100 µM
CC[C@@H](C(C)C)[C@@H](O)[C@H](O)[C@@H](C)[C@H]1CC[C@H]2[C@@H]3CC(=O)[C@H]4C[C@@H](OC(C)=O)CC[C@]4(C)[C@H]3CC[C@]12C,MTT,238 µM
c1ccc(CO/N=C(\Cn2ccnc2)c2ccccc2)cc1,-,8 µg/mL
CC(C)OC(=O)[C@H](C)NP(=O)(OC[C@H]1O[C@@H](n2ccc(N)nc2=O)C(F)(F)C1(F)F)Oc1ccccc1,-,>100 µM
Nc1ccn([C@@H]2O[C@@H](CO)C=C2F)c(=O)n1,-,>100 µM
Clc1ccc(/C(Cn2ccnc2)=N\OCc2ccc(-c3ccccc3)cc2)cc1,-,6 µg/mL
CC[C@@H](C(C)C)[C@@H](O)[C@H](O)[C@@H](C)[C@H]1CC[C@H]2[C@@H]3CC(=O)[C@@]4(O)C[C@H](O)[C@H](O)C[C@]4(C)[C@H]3CC[C@]12C,MTT,40 µM
Nc1nc(Cl)c2ncn([C@@H]3O[C@@H](CO)C=C3F)c2n1,-,>100 µM
CC(C)c1cn([C@H]2C[C@H](O)[C@@H](CO)S2)c(=O)[nH]c1=O,-,>500 µM
Cc1cn2c(C(=O)NCc3ccc(C(F)(F)F)cc3)c(C)nc2s1,fluorescence,>100 µM
Nc1ncnc2c1ncn2[C@@H]1O[C@@H](CO)C=C1F,-,>100 µM
CC(Sc1ncnc2c1cnn2COCC(O)CO)C(N)=O,-,>400 µg/mL
Clc1ccc(/C(Cn2ccnc2)=N/OCc2ccccc2)c(Cl)c1,-,2 µg/mL
NC(=O)CSc1ncnc2c1cnn2CCCCO,-,>400 µg/mL
O=c1[nH]c(=O)n([C@H]2C[C@H](O)[C@@H](CO)S2)cc1/C=C/Cl,-,>500 µM
COc1ccc2ccccc2c1/C=N/Nc1cc(C)nc2cc(Cl)ccc12,-,3.3 µg/mL
CCOP(=O)(OCC)C1=NOC(Cn2cc(C)c(=O)[nH]c2=O)C1,-,>400 µM
Cc1nc2n(C/C=C\CO)nc(-c3ccccc3)c(=O)n2n1,-,950 µM
COc1cccc(CNC(=O)c2c(C)nc3sc(C)cn23)c1,fluorescence,>100 µM
O=c1[nH]c(=O)n([C@@H]2O[C@@H](CO)[C@H](O)C2(F)F)cc1Br,-,>100 µM
Cc1cn([C@@H]2O[C@@H](CO)C=C2F)c(=O)[nH]c1=O,-,>100 µM
Cc1cn2c(C(=O)NCc3ccc(N4CCC5(CC4)OCC(C)CO5)cc3)c(C)nc2s1,fluorescence,47 µM
C[C@]1(CO)[C@H](Cn2cnc3c(=O)[nH]c(N)nc32)C1(F)F,-,>100 µM
CCN(CC)c1ccc(/C=N/Nc2ccnc3cc(OC)ccc23)cc1,-,7.2 µg/mL
O=c1[nH]cnc2c1ncn2C[C@H]1C[C@H]1[C@H](O)CO,-,>100 µM
Nc1nc2c(ncn2[C@@H]2O[C@H](CO)C(F)(F)C2(F)F)c(=O)[nH]1,-,>100 µM

3 of the rows above, restated:

{"SMILES": "Cc1cc(/C=N/Nc2ccnc3ccc(C4CCCCC4)cc23)c(C)n1-c1ccccc1", "result": "12.6 µg/mL"}
{"SMILES": "CCOP(=O)(OCC)C1=NOC(n2ccc(NC(C)=O)nc2=O)C1", "result": ">400 µM"}
{"SMILES": "Nc1ccn(C[C@H]2C[C@H]2CO)c(=O)n1", "result": ">100 µM"}